Results of unrelated studies side by side (data: NIAID ChemDB).

Shared fields: enzyme or target tests; species: HIV-1; protein: Reverse transcriptase

Inhibition is in % at the dose shown (toxicity tests: loss of growth or viability). ICn is the concentration giving n% inhibition. Fold resistance has wild type as its base. a–b is a range or a potency band. Neighbouring rows are from separate reports. An empty or dashed field is not shown.

SMILES	strain or isolate	mutations	method	endpoint	tested at	result
CCN1c2ncc(CCOc3ccc(CC(=O)O)c4c3CCCC4)cc2C(=O)N(C)c2cccnc21		RT-K103N Y181C	nucleotide incorporation / radiometric	fold resistance		1–10
COC(=O)NCCCCNc1nc(Cc2ccccc2)c(C)c(=O)[nH]1		RT-K103N		Ki		>1000 µM
CCN1c2ncc(CCOc3ccc(/C=C(\C)C(=O)O)c4ccccc34)cc2C(=O)N(C)c2ccc(Cl)nc21		RT-V106A	nucleotide incorporation / radiometric	IC50		0.1–1 µM
CC(C(=O)O)C(=O)NC(C)(C)C#Cc1ccc(NC(=O)CSc2nnnn2-c2ccc(C3CC3)cc2Cl)c(Cl)c1		RT-K103 Y181C	PicoGreen / fluorescence	IC50		<1 µM
O=C(NCCc1ccccc1)Nc1ccn[nH]1			nucleotide incorporation	inhibition	0.1 µg/mL	1%
CC(C)(C)c1ccc(-n2nnnc2SCC(=O)Nc2ccc(S(=O)(=O)NCCO)cc2Cl)c(Cl)c1	WT		PicoGreen / fluorescence	IC50		<1 µM
O=C(NCCc1ccccc1)Nc1ccc(Cl)cc1			nucleotide incorporation	inhibition	0.1 µg/mL	4%
CCN1c2ncc(CCOc3ccc(C(=O)O)c4ccccc34)cc2C(=O)N(C)c2ccc(C)nc21		RT-K103N Y181C	nucleotide incorporation / radiometric	fold resistance		1–10
Cc1nnc(SCC(=O)Nc2ccc(C#CC(C)(C)COC(N)=O)cc2Cl)n1-c1ccc(C2CC2)cc1Cl	WT		PicoGreen / fluorescence	IC50		<1 µM
CCN1c2ncc(CCOc3ccc(C(=O)O)c4c3CCN(C(=O)OC)C4)cc2C(=O)N(C)c2cccnc21		RT-V106A	nucleotide incorporation / radiometric	fold resistance		>10
CCN1c2ncc(CCOc3cccc4c3ccc[n+]4[O-])cc2C(=O)N(C)c2ccc(Cl)nc21		RT-Y181C	nucleotide incorporation / radiometric	fold resistance		3.1
CC(C)(C)c1ccc(-n2nnnc2SCC(=O)Nc2ccc(OCC(=O)NCc3ccco3)cc2Cl)c(Cl)c1	WT		PicoGreen / fluorescence	IC50		<1 µM
O=C(NCCc1ccccc1)Nc1ccccc1Cl			nucleotide incorporation	inhibition	0.1 µg/mL	5%
CCN1c2ncc(CCOc3ccc(C(=O)O)c4c3CCN(C(=O)OC(C)(C)C)C4)cc2C(=O)N(C)c2cccnc21		RT-Y188L	nucleotide incorporation / radiometric	IC50		0.1–1 µM
O=C(CSc1nnnn1-c1ccc(C2CC2)cc1Cl)Nc1ccc(-c2ccc(OCCN3CCS(=O)(=O)CC3)cc2)c(F)c1Cl		RT-K103 Y181C	PicoGreen / fluorescence	IC50		<1 µM
O=c1cc(Cc2ccccc2)nc(SCCCCO)[nH]1		RT-K103N		Ki		>1000 µM
O=C(NCCc1ccccc1)NCc1ccoc1			nucleotide incorporation	inhibition	1 µg/mL	12%
CC(C)(C)c1ccc(-n2nnnc2SCC(=O)Nc2ccc(C(=O)NCCO)cc2Cl)c(Cl)c1	WT		PicoGreen / fluorescence	IC50		<1 µM